Anti-infective test results gathered from many reports (values: NIAID ChemDB through PubChem).

Common to all: tests in culture; species: HIV-2; endpoint: EC50

Lines come from different laboratories, so protocols vary. An empty or dashed field is not shown. ECn is the concentration giving n% inhibition of infection, replication or growth.

compound,strain or isolate,read by,cells,result
CC1(C)[C@@H](CCO)C[C@H]1n1nnc2c(N)nc(N)nc21,,cytopathic effect,MT-4,>100 µg/mL
O=C1[C@@H](Cc2ccccc2)NC(=S)N1Cc1ccccc1,,RT activity,MT-4,<10 µg/mL
NC/C=C/Cn1ccc(=O)[nH]c1=O,,syncytia,CEM,>100 µM
O=C(COc1ccc2ccccc2c1)NCc1n[nH]c(=S)n1-c1ccc(Cl)cc1,ROD,MTT,MT-4,>20.2 µg/mL
O=C(NCCc1ccccc1)Nc1nc2ccc(Cl)cc2s1,,RT activity,MT-4,<1 µg/mL
CCc1nc([N+](=O)[O-])c(N2CCN(C(=O)CSCc3ccc(Cl)cc3)CC2)n1Cc1ccccc1,ROD,syncytia,MT-4,>5.81 µg/mL
Cc1cc2oc(=O)c(C(=O)/C=C/c3ccccc3[N+](=O)[O-])c(O)c2cc1Cl,ROD,virus yield,MT-4,>10.1 µg/mL
O=C1CN=C(COc2ccc3ccccc3c2)NN1,ROD,MTT,MT-4,>5.2 µg/mL
CC(C)C(NC(=S)NC(=O)CCCN1C(=O)c2ccccc2C1=O)C(=O)O,ROD,MTT,MT-4,>26.73 µM
CCOC(=O)c1ccc(-c2cc(N)nc(=O)n2C)cc1,ROD,MTT,MT-4,>75.23 µM
COc1cccnc1SCc1cc(C)ccc1C,ROD,syncytia,CEM,40 µg/mL
Cc1cn([C@@H]2O[C@H](COS(=O)(=O)c3ccccc3)C3(OS(=O)(=O)C=C3N)[C@H]2O[Si](C)(C)C(C)(C)C)c(=O)n(C)c1=O,,,CEM + CEM/0,>6.2 µM
CC1(C)[C@@H](CCO)C[C@H]1n1cnc2c(N)nc(N)nc21,,cytopathic effect,CEM,>20 µg/mL
CCOC(=O)CNc1nc(NC(=O)Nc2ccc(Br)cc2)nc(Oc2cc(=O)oc3ccccc23)n1,ROD,MTT,MT-4,>125 µg/mL
Cc1ccc(C)c(CSc2c(O)ccc[n+]2[O-])c1,ROD,syncytia,CEM,>20 µg/mL
Cc1cn([C@@H]2O[C@H](COC(=O)N(C)C)C3(OS(=O)(=O)C=C3N)[C@H]2O[Si](C)(C)C(C)(C)C)c(=O)n(C)c1=O,,,CEM + CEM/0,>50 µM
Nc1ccn([C@H]2C=C[C@@H](CO)O2)c(=O)n1,ROD,cytopathic effect / trypan blue,MT-4,0.69 µM
C#CCn1cc(C)c(=O)[nH]c1=O,ROD,cytopathic effect,MT-4,>100 µg/mL
Cc1cc2oc(=O)c(C(=O)/C=C/c3cccc([N+](=O)[O-])c3)c(O)c2cc1Cl,ROD,virus yield,MT-4,>66.5 µg/mL
O=C(COc1ccc2ccccc2c1)NCC(=O)NNC(=S)NCc1ccccc1,ROD,MTT,MT-4,>67 µg/mL
COc1ccc(CS(=O)c2cccc[n+]2[O-])cc1,ROD,syncytia,CEM,>0.8 µg/mL
O=C1c2ccccc2C(=O)N1C/C=C\Cn1ccc(=O)[nH]c1=O,,syncytia,CEM,>100 µM
CCc1nc([N+](=O)[O-])c(N2CCN(C(C)=O)CC2)n1Cc1ccccc1,ROD,syncytia,MT-4,>63.1 µg/mL
COC(=O)C1CCCN1C(=O)CCCN1C(=O)c2ccccc2C1=O,ROD,MTT,MT-4,>101.9 µM
COc1ccc(CS(=O)(=O)c2cc(C(C)(C)C)cc[n+]2[O-])cc1,ROD,syncytia,CEM,>20 µg/mL
COC(=O)C(CC(C)C)NC(=O)CCCN1C(=O)c2ccccc2C1=O,ROD,MTT,MT-4,>10.89 µM
N#C/C(=C/c1ccccc1)Sc1cccc[n+]1[O-],ROD,syncytia,CEM,>4 µg/mL
O=C(COc1ccc2ccccc2c1)NCC(=O)NNC(=S)Nc1ccc(Br)cc1,ROD,MTT,MT-4,>31.2 µg/mL
Cc1c(Cl)c(Cl)c(CS(=O)(=O)c2cccc[n+]2[O-])c(Cl)c1Cl,ROD,syncytia,CEM,≥0.8 µg/mL
CCc1nc([N+](=O)[O-])c(N2CCN(C(=O)CCc3c[nH]c4ccccc34)CC2)n1Cc1ccccc1,ROD,syncytia,MT-4,>15.4 µg/mL
Cc1cn([C@@H]2O[C@H](CN3CCN(Cc4ccccc4)CC3)C3(OS(=O)(=O)C=C3N)[C@H]2O[Si](C)(C)C(C)(C)C)c(=O)n(C)c1=O,,,MT-4,>50 µM
Cc1ccc(Cl)c(C(C)S(=O)c2cccc[n+]2[O-])c1,ROD,syncytia,CEM,>0.16 µg/mL
COc1ccc(NC(=S)Nc2nc(NCCc3ccc(OC)c(OC)c3)nc(Oc3cc(=O)oc4ccccc34)n2)cc1,ROD,MTT,MT-4,>56.45 µg/mL
CN1C(=O)[C@@H](Cc2ccccc2)NC1=S,,cytopathic effect / XTT,MT-4,<10 µg/mL
Cc1ccc(C)c(CS(=O)(=O)c2c(O)ccc[n+]2[O-])c1,ROD,syncytia,CEM,>100 µg/mL
COC(=O)CCNP(=O)(OC[C@@H]1C=C[C@H](n2cc(C)c(=O)[nH]c2=O)O1)Oc1ccccc1,,cytopathic effect / microscopy,CEM + CEM TK-,7 µM
COc1c(Cl)cc(C(=CCCNC(=O)C[C@H]2CC[C@]3(C)C4CC[C@@]5(C)C(CC[C@@H]5CC(=O)NCCC=C(c5cc(Cl)c(OC)c(C(=O)O)c5)c5cc(Cl)c(OC)c(C(=O)O)c5)C4CC[C@H]3C2)c2cc(Cl)c(OC)c(C(=O)O)c2)cc1C(=O)O,ROD,cytopathic effect / MTT,MT-4,52 µM
O=[N+]([O-])c1ccc(SCc2ccccc2)nc1,ROD,syncytia,CEM,>20 µg/mL
CCOc1ccccc1CCNC(=S)Nc1nccs1,,cytopathic effect / XTT,MT-4,<1 µg/mL
Nc1ncnc2c1ncn2Cc1cn(COCCO)nn1,ROD,cytopathic effect,MT-4,>100 µg/mL
COC(=O)C(CO)NC(=O)CCCN1C(=O)c2ccccc2C1=O,ROD,MTT,MT-4,>96.11 µM
COc1ccc(CCNc2nc(NC(=O)Nc3ccccc3C)nc(Oc3cc(=O)oc4ccccc34)n2)cc1OC,ROD,MTT,MT-4,>16.9 µg/mL
Cc1ccc(C)c(C(Cc2ccccc2)Sc2cccc[n+]2[O-])c1,ROD,syncytia,CEM,>4 µg/mL
O=C(NCCc1ccccc1)Nc1nncs1,,RT activity,MT-4,<1 µg/mL
CCOC(=O)CNc1nc(NC(=O)Nc2ccc(OC)cc2)nc(Oc2cc(=O)oc3ccccc23)n1,ROD,MTT,MT-4,>85.9 µg/mL
C#CCn1cnc2c(N)ncnc21,ROD,cytopathic effect,MT-4,>100 µg/mL
Cc1ccc(-n2c(CNC(=O)COc3ccc4ccccc4c3)n[nH]c2=S)cc1,ROD,MTT,MT-4,>25.2 µg/mL
CSCCC(NC(=S)NC(=O)CCCN1C(=O)c2ccccc2C1=O)C(=O)O,ROD,MTT,MT-4,>78.22 µM
C=C1O[C@@H](n2cc(C)c(=O)n(C)c2=O)[C@H](O[Si](C)(C)C(C)(C)C)[C@]12OS(=O)(=O)C=C2N,,,MT-4,>50 µM
O=C(NCCc1ccccc1)Nc1nc2ccc(F)cc2s1,,RT activity,MT-4,<1 µg/mL
CC(=O)Nc1nc2c(ncn2C/C=C\CN2C(=O)c3ccccc3C2=O)c(=O)[nH]1,,syncytia,CEM,>100 µM
CCOC(=O)[C@H](C)NP(=O)(OC[C@@H]1C=C[C@H](n2cc(C)c(=O)[nH]c2=O)O1)Oc1ccccc1,,cytopathic effect / microscopy,CEM + CEM/0,0.07 µM
O=C1c2ccccc2C(=O)N1C/C=C/Cn1cnc2c(Cl)ncnc21,,syncytia,CEM,>100 µM
CC1(C)[C@@H](CCO)C[C@H]1n1nnc2c(Cl)nc(N)nc21,,cytopathic effect,MT-4,>200 µg/mL
N#Cc1cc2[nH]c3ccccc3c2n(-c2ccc([N+](=O)[O-])cc2)c1=O,,cytopathic effect / MTT,MT-4,6.31 µM
CCc1nc([N+](=O)[O-])c(N2CCN(C(=O)CSCc3ccccc3)CC2)n1Cc1ccccc1,ROD,syncytia,MT-4,>6.48 µg/mL
Cc1ccnc2c1NC(=O)c1cccnc1N2C1CC1,ROD,MTT,MT-4,>4 µM
CCCCCCCCCCCC(c1cc(C)ccc1C)S(=O)(=O)c1cccc[n+]1[O-],ROD,syncytia,CEM,>20 µg/mL
CCc1nc([N+](=O)[O-])c(N2CCN(C(=O)CSC)CC2)n1Cc1ccccc1.COc1ccccc1,ROD,syncytia,MT-4,>5.29 µg/mL
C#CCn1cnc2c(=O)[nH]c(NC(C)=O)nc21,ROD,cytopathic effect,MT-4,>100 µg/mL
O=C(NCCc1ccccc1)Nc1nc(C(F)(F)F)cs1,,cytopathic effect / XTT,MT-4,<1 µg/mL
Cn1c(-c2ccccc2F)cc(N)nc1=O,ROD,MTT,MT-4,>13.27 µM
O=[N+]([O-])c1ccccc1CS(=O)(=O)c1cccc[n+]1[O-],ROD,syncytia,CEM,≥4 µg/mL
COc1ccc(CCNc2nc(NC(=O)Nc3ccc4ccccc4c3)nc(Oc3cc(=O)oc4ccccc34)n2)cc1OC,ROD,MTT,MT-4,>12.85 µg/mL
Nc1ncnc2c1ncn2C/C=C\CN1C(=O)c2ccccc2C1=O,,syncytia,CEM,>100 µM
Cc1ccc(C)c(C(CCCCCCBr)S(=O)(=O)c2cccc[n+]2[O-])c1,ROD,syncytia,CEM,>0.8 µg/mL
O=C1c2ccccc2C(=O)N1C/C=C/Cn1cc(C(F)(F)F)c(=O)[nH]c1=O,,syncytia,CEM,>100 µM
Cc1ccc(NC(=S)NNC(=O)CNC(=O)COc2ccc3ccccc3c2)cc1,ROD,MTT,MT-4,>91.4 µg/mL
CCCCCCNc1c(N=Nc2ccc(-c3ccc(F)cc3)cc2)c(N)nc(=O)n1C,ROD,MTT,MT-4,>11.66 µM
Cc1ccc(C(C)C)c2oc(=O)c(C(=O)/C=C/c3ccccc3[N+](=O)[O-])c(O)c12,ROD,virus yield,MT-4,>2.81 µg/mL
O=C(COc1ccc2ccccc2c1)NCc1n[nH]c(=S)n1-c1ccc(Br)cc1,ROD,MTT,MT-4,≥10.2 µg/mL
COc1c(Cl)cc(C(=CCNC(=O)C[C@H]2CC[C@]3(C)C4CC[C@@]5(C)C(CC[C@@H]5CC(=O)NCC=C(c5cc(Cl)c(OC)c(C(=O)O)c5)c5cc(Cl)c(OC)c(C(=O)O)c5)C4CC[C@H]3C2)c2cc(Cl)c(OC)c(C(=O)O)c2)cc1C(=O)O,ROD,cytopathic effect / MTT,MT-4,70 µM
N#C/C(=C/c1ccc(Cl)cc1Cl)S(=O)(=O)c1cccc[n+]1[O-],ROD,syncytia,CEM,>4 µg/mL
COc1ccc(CCNc2nc(NC(=O)Nc3ccc(F)cc3)nc(Oc3cc(=O)oc4ccccc34)n2)cc1OC,ROD,MTT,MT-4,>19.75 µg/mL
CCCNc1c(N=Nc2ccc(Cl)cc2)c(N)nc(=O)n1C,ROD,MTT,MT-4,>100 µM
CCc1nc([N+](=O)[O-])c(N2CCN(C(=O)CS(=O)(=O)c3cccc4ccccc34)CC2)n1Cc1ccccc1,ROD,syncytia,MT-4,>14.5 µg/mL
O=C(COc1ccc2ccccc2c1)NCc1n[nH]c(=S)n1Cc1ccccc1,ROD,MTT,MT-4,>28.5 µg/mL
COc1ccc(/C=C/C(=O)c2c(O)c3cc(Cl)c(C)cc3oc2=O)cc1OC,ROD,virus yield,MT-4,>71.4 µg/mL
Cc1ccc(CS(=O)c2cccc[n+]2[O-])cc1,ROD,syncytia,CEM,>4 µg/mL
C=CCOC[C@H]1O[C@@H](n2cc(C)c(=O)n(C)c2=O)[C@H](O[Si](C)(C)C(C)(C)C)C12OS(=O)(=O)C=C2N,,,CEM + CEM/0,43.3 µM
CC(=O)OCCOCn1cc(Cn2cc(C)c(=O)[nH]c2=O)nn1,ROD,cytopathic effect,MT-4,>100 µg/mL
CCOC(=O)CNc1nc(NC(=O)Nc2ccccc2OC)nc(Oc2cc(=O)oc3ccccc23)n1,ROD,MTT,MT-4,>125 µg/mL
Cc1ccc(C(C)C)c2oc(=O)c(C(=O)/C=C/c3ccccc3)c(O)c12,ROD,virus yield,MT-4,>13.2 µg/mL
CCCCCCC(C)[C@H]1CCC2C3CC[C@H]4C[C@@H](CCC=C(c5cc(Cl)c(O)c(C(=O)O)c5)c5cc(Cl)c(O)c(C(=O)O)c5)CC[C@]4(C)C3CC[C@@]21C,ROD,cytopathic effect / MTT,MT-4,4 µM
Nc1nc2c(ncn2CCC(CO)CO)c(=O)[nH]1,ROD,cytopathic effect / MTT,MT-4,>493 µM
Cc1cc2oc(=O)c(C(=O)/C=C/c3ccc(O)cc3)c(O)c2cc1Cl,ROD,virus yield,MT-4,>2.74 µg/mL
COc1ccc(C)cc1CSc1cccc[n+]1[O-],ROD,syncytia,CEM,≥20 µg/mL
CC1(C)[C@@H](CCO)C[C@H]1n1nnc2c(=O)[nH]c(N)nc21,,cytopathic effect,MT-4,>250 µg/mL
CCc1nc([N+](=O)[O-])c(N2CCN(C(=O)CSc3ccccc3)CC2)n1Cc1ccccc1,ROD,syncytia,MT-4,>2.74 µg/mL
COC(=O)C(C)NC(=O)CCCN1C(=O)c2ccccc2C1=O,ROD,MTT,MT-4,>101 µM
CC(c1ccc(F)cc1)S(=O)c1cccc[n+]1[O-],ROD,syncytia,CEM,>0.16 µg/mL
COc1c(Cl)cc(C(=CCCCCN(C(=O)C=C(c2cc(Cl)c(OC)c(C(=O)O)c2)c2cc(Cl)c(OC)c(C(=O)O)c2)[C@H]2CC[C@]3(C)C4CC[C@@]5(C)C(CC[C@@H]5C(C)CCCC(C)C)C4CC[C@H]3C2)c2cc(Cl)c(OC)c(C(=O)O)c2)cc1C(=O)O,ROD,cytopathic effect / MTT,CEM + CEM-SS,8.2 µM

A second listing of 5 rows from above:

compound | strain or isolate | read by | cells | result
C=C1O[C@@H](n2cc(C)c(=O)n(C)c2=O)[C@H](O[Si](C)(C)C(C)(C)C)[C@]12OS(=O)(=O)C=C2N |  |  | MT-4 | >50 µM
CCc1nc([N+](=O)[O-])c(N2CCN(C(=O)CSCc3ccc(Cl)cc3)CC2)n1Cc1ccccc1 | ROD | syncytia | MT-4 | >5.81 µg/mL
CCc1nc([N+](=O)[O-])c(N2CCN(C(=O)CSCc3ccccc3)CC2)n1Cc1ccccc1 | ROD | syncytia | MT-4 | >6.48 µg/mL
Cc1cc2oc(=O)c(C(=O)/C=C/c3ccccc3[N+](=O)[O-])c(O)c2cc1Cl | ROD | virus yield | MT-4 | >10.1 µg/mL
O=C(NCCc1ccccc1)Nc1nc(C(F)(F)F)cs1 |  | cytopathic effect / XTT | MT-4 | <1 µg/mL